Results of unrelated studies side by side (data: NIAID ChemDB).

Shared fields: tests in culture; agent: Human cytomegalovirus

Blank or dashed fields: not listed here. Neighbouring rows are from separate reports. ECn: concentration that inhibits the pathogen or its effect by n%.

smiles	endpoint	strain or isolate	read by	cells	value
O=C(NCc1ccc(Cl)cc1)c1c[nH]c2ccc(C#CCO)cc2c1=O	EC50	AD169	plaque count	-	0.8 µM
Nc1ccn(C[C@@H](CO)OCP(=O)(O)O)c(=O)n1	EC50	759rD100	plaque count	HFF	3.2 µM
O[C@@H]1[C@H](O)[C@H](O)CO[C@H]1n1c(Br)nc2cc(Cl)c(Cl)cc21	EC50	C9208/3-3-1	plaque count	HFF	2 µM
CC(C)Nc1nc2cc(Cl)c(Cl)cc2n1[C@H]1O[C@@H](CO)[C@H](O)[C@@H]1O	EC50	R56 (BDCRB-resistant)	plaque count	HFF	86 µM
CCCCCCCCCCCCOCCCOP(=O)(O)CO[C@H](CO)Cn1ccc(N)nc1=O	EC50	Toledo	plaque count	HFF	0.03 µM
OC[C@H]1O[C@@H](n2c(Br)nc3cc(Cl)c(Cl)cc32)[C@H](O)[C@@H]1O	EC50	C8805/37-1-1 (drug-resistant)	plaque count	HFF	1.4 µM
CN(C)c1cccc2c(S(=O)(=O)Nc3ccc(NC(=O)C(C)(C)CO)cc3)cccc12	EC50	ULM B (ganciclovir-resistant)	plaque count	-	1.48 µM
Nc1ncnc2c1ncn2C=C1CC1CO	EC90	VR3480 (ganciclovir-resistant)	plaque count	-	8.4 µM
Nc1ncnc2c1ncn2C=C1CC1CO	EC50	AD169	cytopathic effect	HFF	1 µM
O=C(NCc1ccc(Cl)cc1)c1cn2c3c(cc(CN4CCOCC4)cc3c1=O)OC(c1cccnc1)C2	EC50	C8914-6 ganciclovir-resistant	plaque count	HFF	>8.7 µM
CN(C)c1cccc2c(S(=O)(=O)Nc3ccc(NC(=O)C(C)(C)CO)cc3)cccc12	EC50	2916R (1263W94-resistant)	virus yield	HFF	<0.9 µM
CCCCCCCCCCCCCCCCCCOCCOP1(=O)CO[C@@H](Cn2ccc(N)nc2=O)CO1	EC50	C8708/17-1-1	plaque count	MRC-5	0.0025 µM
CCOC(=O)/C=C\C=C\[C@H]1O[C@@H](n2ccc(=O)[nH]c2=O)[C@H](O)[C@@H]1O	EC50	DAVIS	-	HEL	10 µM
O=C(O)P(=O)(O)O	EC50	Cidofovir-resistant	plaque count	HEL	59.2 µM
O=C(NCc1ccc(Cl)cc1)c1c[nH]c2ccc(CCCO)cc2c1=O	EC50	Clinical isolates	plaque count	-	1 µM
Nc1nc2c(ncn2COC(CO)CO)c(=O)[nH]1	EC50	AD169 (ganciclovir foscarnet-susceptible)	plaque count	MRC-5	3.09 µM
CCCCCCCC/C=C\CCCCCCCCOCCOP(=O)(O)CO[C@H](CO)Cn1ccc(N)nc1=O	EC50	759rD100	plaque count	HFF	0.04 µM
CC(C)Nc1nc2cc(Cl)c(Cl)cc2n1[C@H]1O[C@@H](CO)[C@H](O)[C@@H]1O	EC50	2916RAE (LEU397ARG)	hybridisation	MRC-5	2.7 µM
Nc1nc2c(ncn2COC(CO)CO)c(=O)[nH]1	EC50	AD169	plaque count	-	8.4 µM
O=C1c2ccccc2C(=O)N1C1C2CC3CC(C2)CC1C3	EC50	AD169	plaque count	HEL	>4 µg/mL
Nc1ccn(C[C@@H](CO)OCP(=O)(O)O)c(=O)n1	EC50	C8704 (ganciclovir-resistant)	plaque count	MRC-5	0.4 µg/mL
CCCCCCCCCCCCCCCCCCOC[C@H](COP(=O)(O)CO[C@H](CO)Cn1ccc(N)nc1=O)OCc1ccccc1	EC50	C8914-6	plaque count	HFF	0.02 µM
C[C@@H]1O[C@@H](n2c(Cl)nc3cc(Cl)c(Cl)cc32)[C@H](O)[C@@H]1O	EC50	1117 3-1-2 (CDV-resistant)	plaque count	-	0.96 µM
CC(C)Oc1ccccc1CNC(=O)c1ccc2cnccc2n1	EC50	D16	plaque count	MRC-5	0.2 µM
O=C1c2ccccc2C(=O)N1C12CC3CC(CC(C3)C1)C2	EC50	AD169	plaque count	HEL	>100 µg/mL
O=C(NCCc1ccccc1)C1=Cc2ccncc2CC1	EC50	D-10 C4	plaque count	HFF	11.2 µM
CCCCCCCCCCCCCCCCOCCCOP(=O)(O)CO[C@H](CO)Cn1ccc(N)nc1=O	EC50	759D100 drug-resistant mutant	plaque count	MRC-5	0.0065 µM
Nc1nc2c(ncn2COC(CO)CO)c(=O)[nH]1	EC50	VR4955R (drug-resistant)	plaque count	HFF	700 µM
O=C1c2ccccc2C(=O)N1CC12CC3CC(CC(C3)C1)C2	EC50	DAVIS	plaque count	HEL	>100 µg/mL
OC[C@H]1O[C@@H](n2c(Cl)nc3cc(Cl)c(Cl)cc32)[C@H](O)[C@@H]1O	EC50	TOWNE	plaque count	-	2.4 µM
NC(=O)c1c(Cl)c(-c2cccnc2)n2c1CCCC2	EC50	LY9990 (ganciclovir-resistant)	plaque count	HEL	0.0003 µM
Nc1nc(NC2CC2)c2ncn(C=C3CC3CO)c2n1	EC50	C9209/1-4-4	plaque count	HFF	6.6 µM
Nc1nc2c(ncn2[C@@H]2C[C@H](CO)[C@H]2CO)c(=O)[nH]1	EC50	Towne (ganciclovir- foscarnet-susceptible)	plaque count	MRC-5	6.8 µM
Nc1nc2c(ncn2C=C2CC2CO)c(=O)[nH]1	EC50	Toledo	plaque count	HFF	8.6 µM
Nc1nc2c(ncn2C[C@@H]2CC[C@@H](P(=O)(O)O)O2)c(=O)[nH]1	EC50	TOWNE	plaque count	HFF	0.08 µg/mL
CCCCCCCCCCCCCCCCCCOCCOP(=O)(O)CO[C@H](CO)Cn1ccc(N)nc1=O	EC50	Toledo	plaque count	MRC-5	0.025 µM
Cn1cc(C(=O)NCc2ccc(Cl)cc2)c(=O)c2cc(CN3CCOCC3)ccc21	EC50	Toledo	plaque count	HFF	7.7 µM
COC(=O)[C@H](C)NP(=O)(OCC1C/C1=C/n1cnc2c(NC3CC3)nc(N)nc21)Oc1ccccc1	EC50	AD169	plaque count	HFF	6.2 µM
COc1ccccc1CNC(=O)C1=Cc2ccncc2CC1	EC50	AD169	plaque count	HS68	1.8 µM
O=C(NCc1ccc(Cl)cc1)c1c[nH]c2ccc(C#CCO)cc2c1=O	EC50	Clinical isolates	plaque count	-	1.3 µM
O=C(O)c1ccccc1C(=O)NC12CC3CC(C1)CC(C(=O)O)(C3)C2	EC50	AD169	plaque count	HEL	>100 µg/mL
COc1cccc(N2CCN(C3=Nc4c(F)cccc4[C@H](CC(=O)O)N3c3cc(C(F)(F)F)ccc3OC)CC2)c1	EC50	Clinical isolate 1	plaque count	-	0.0015 µM
OC[C@H]1O[C@@H](n2c(Br)nc3cc(Cl)c(Cl)cc32)[C@H](O)[C@@H]1O	EC90	TOWNE	virus yield	HFF	0.45 µM
Nc1nc2c(ncn2COC(CO)CO)c(=O)[nH]1	EC50	C9207	plaque count	MRC-5	6.7 µM
Nc1ccn(C[C@H]2COP(=O)(O)CO2)c(=O)n1.O=C(O)P(=O)(O)O	EC75	PC92 (ganciclovir- foscarnet-susceptible)	plaque count	MRC-5	1.06 µM
Nc1nc2c(ncn2COC(CO)CO)c(=O)[nH]1	EC90	AD169	virus yield	HFF	1.2 µM
Nc1ccn(C[C@H]2COP(=O)(O)CO2)c(=O)n1	EC75	PAAR	plaque count	MRC-5	0.79 µM
OC[C@@H]1O[C@@H](n2c(Cl)nc3cc(Cl)c(Cl)cc32)[C@H](O)[C@@H]1O	EC50	TOWNE	virus yield	HFF	<9.2 µM

Repeating the final 5 entries:

smiles | endpoint | strain or isolate | read by | cells | value
Nc1nc2c(ncn2COC(CO)CO)c(=O)[nH]1 | EC50 | C9207 | plaque count | MRC-5 | 6.7 µM
Nc1ccn(C[C@H]2COP(=O)(O)CO2)c(=O)n1.O=C(O)P(=O)(O)O | EC75 | PC92 (ganciclovir- foscarnet-susceptible) | plaque count | MRC-5 | 1.06 µM
Nc1nc2c(ncn2COC(CO)CO)c(=O)[nH]1 | EC90 | AD169 | virus yield | HFF | 1.2 µM
Nc1ccn(C[C@H]2COP(=O)(O)CO2)c(=O)n1 | EC75 | PAAR | plaque count | MRC-5 | 0.79 µM
OC[C@@H]1O[C@@H](n2c(Cl)nc3cc(Cl)c(Cl)cc32)[C@H](O)[C@@H]1O | EC50 | TOWNE | virus yield | HFF | <9.2 µM